According to PubChem BioAssay AID488890 (Southern Research Specialized Biocontainment Screening …, 2010):
The other results are listed elsewhere or left out. Records with an inconclusive call do not appear. The rule behind the calls is not given here.

test: growth inhibition of non-replicating M. tuberculosis (AID 488890); conditions: Mycobacterium tuberculosis non-replicating, at 25 µM, stronger effect = higher value;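 note: plate controls were DMSO cells for no effect and high antibiotic wells for full effect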

Point of comparison: `COc1cc(C(=O)NCC2(N3CCOCC3)CCCCC2)cc(OC)c1C`, inhibition 28.8%. Against it:
- CSc1ccccc1C(=O)NCC1(N2CCCCC2)CCCCC1 — lower, 28.6%
- CC(C)(C)OC(=O)N1CCC(N(C(=O)c2ccccc2)c2ccc(F)cc2)CC1 — lower, -19.4%
- COc1ccc(C(=O)NCC2(N3CCCCC3)CCCCC2)c(OC)c1OC — lower, -11.7%
- COc1ccc(C(=O)NCC2(N3CCCCC3)CCCCC2)cc1 — higher, 29.9%
- O=C(NCC1(N2CCCCC2)CCCCC1)c1cccs1 — lower, 19%
- O=C(NCC1(N2CCCCC2)CCCCC1)c1ccc(=O)[nH]c1 — lower, 0.267%
- COc1ccc(Cl)cc1C(=O)NCC1(N2CCOCC2)CCCCC1 — lower, 10.4%
- O=C(NCC1(N2CCCCC2)CCCCC1)c1ccc(Cl)s1 — lower, 27.2%
- N#CC1(Nc2ccccc2)CCN(Cc2ccccc2)CC1 — lower, -4.22%
- CCOC(=O)N1CCC(Nc2ccc(OC)cc2)CC1 — higher, 31.6%
- Cc1cc(C)cc(N(C(=O)c2ccccc2)C2CCN(C(=O)OC(C)(C)C)CC2)c1 — higher, 63.9%
- O=C(NCC1(N2CCCCC2)CCCCC1)c1ccc(Cl)nc1 — higher, 33.6%
- O=C(NCC1(N2CCOCC2)CCCCC1)c1cc2ccccc2o1 — higher, 44.5%
- CCOC(=O)N1CCC(Nc2ccc(F)cc2)CC1 — higher, 77.5%
- O=C(NCC1(N2CCCCC2)CCCCC1)c1ccc(F)cc1 — lower, 11.7%
- CCOc1ccc(C)cc1CN(CCCl)CCCl — lower, -12.6%
- Cc1ccc(OCC(C)C)c(CN(CCCl)CCCl)c1 — higher, 43.9%
- CCOC(=O)N1CCC(Nc2cccc(C)c2)CC1 — lower, 3.24%
- COc1cc(C(=O)NCC2(N(C)C)CCCCC2)ccc1OC(F)F — lower, -5.28%
- N#CC1(Nc2ccccc2)CCN(CCc2ccccc2)CC1 — lower, -4.17%
- CCN1CCC(Nc2ccc(Cl)cc2)CC1 — lower, -23.8%
- O=C(NCC1(N2CCCCC2)CCCCC1)c1cccc([N+](=O)[O-])c1 — lower, 11%
- O=C(NCC1(N2CCCCC2)CCCCC1)c1ccc(OC(F)F)cc1 — lower, 27.5%
- COc1cc(C(=O)NCC2(N3CCCCC3)CCCCC2)ccc1OC(F)F — lower, 25.7%
- O=C(NCC1(N2CCOCC2)CCCCC1)c1cc(=O)[nH]c2ccccc12 — lower, -15%
- CN1CCN(CCOC(=O)C(O)(c2ccccc2)c2ccccc2)CC1 — lower, -0.26%
- COc1ccc(NC2CCN(C(=O)OC(C)(C)C)CC2)cc1 — higher, 31.7%
- O=C(NCC1(N2CCCCC2)CCCCC1)c1cccc(C(F)(F)F)c1 — lower, 0.6%
- O=C(NCC1(N2CCOCC2)CCCCC1)c1cc(F)c(F)cc1Cl — lower, -0.01%
- COc1cc(OC)c(C(=O)NCC2(N(C)C)CCCCC2)cc1OC — lower, 4.22%
- CC(C)c1ccc(NC2CCN(C(=O)OC(C)(C)C)CC2)cc1 — higher, 34%
- CN(C)c1cccc(C(=O)NCC2(N3CCCCC3)CCCCC2)c1 — lower, 19.7%
- COc1ccc(CN(CCCl)CCCl)cc1Cl — lower, -13.1%
- CCCOc1ccc(C(=O)NCC2(N(C)C)CCCCC2)cc1OC — lower, -2.11%
- CN1CCC(Nc2cccc(F)c2)CC1 — lower, 4.83%
- O=C(NCC1(N2CCCCC2)CCCCC1)c1cncc(Br)c1 — lower, 20.4%
- COc1ccc(C(=O)NCC2(N3CCOCC3)CCCCC2)cc1OC — lower, -3.21%
- O=C(NCC1(N2CCOCC2)CCCCC1)c1cc(Br)ccc1Cl — higher, 35.5%
- O=C(OC1CN2CCC1CC2)C1c2ccccc2C=Cc2ccccc21 (stereo not drawn) — lower, 6.35%
- CCOC(=O)N1CCC(Nc2ccc(C)cc2)CC1 — lower, 15.4%
- N/C(=N\O)c1c(N)no[n+]1[O-] — lower, 0.49%
- N#Cc1ccc(C(=O)NCC2(N3CCCCC3)CCCCC2)cc1 — lower, -9.91%
- CC(C)(C)OC(=O)N1CCC(N(C(=O)c2ccccc2)c2ccc(Cl)cc2)CC1 — lower, 14.1%
- CN(C)C1(CNC(=O)c2cccc(C#N)c2)CCCCC1 — lower, -8.28%
- CCCN1CCC(Nc2cc(OC)cc(OC)c2)CC1 — lower, -4.44%
- c1ccc(CN2CCC(Nc3ccccc3)CC2)cc1 — lower, -10.1%
- Fc1ccccc1NC1CCN(Cc2ccccc2)CC1 — lower, -5.87%
- Cc1ccc(C(=O)NCC2(N3CCCCC3)CCCCC2)o1 — lower, 2.98%
- COc1cc(OC)cc(C(=O)NCC2(N3CCCCC3)CCCCC2)c1 — lower, -11%
- CN(C)c1ccc(C(=O)NCC2(N3CCCCC3)CCCCC2)cc1 — lower, -1.54%
- O=C(NCC1(N2CCCCC2)CCCCC1)c1ccco1 — higher, 33.8%
- CCN1CCC(Nc2cccc(F)c2)CC1 — lower, 6.61%
- O=C(O)C1(Nc2ccccc2)CCN(Cc2ccccc2)CC1 — lower, -3.54%
- CC(C)(C)OC(=O)N1CCC(Nc2ccccc2)CC1 — lower, 28.7%
- CCCOc1ccc(C(=O)NCC2(N(C)C)CCCCC2)cc1 — lower, -4.85%
- CN1CCC(Nc2ccc(F)c(Cl)c2)CC1 — lower, -5.52%
- CCOc1ncccc1C(=O)NCC1(N2CCOCC2)CCCCC1 — lower, 8.5%
- CN1CCC(Nc2ccc(Cl)cc2)CC1 — lower, -0.38%
- CCCOc1ccc(C)cc1CN(CCCl)CCCl — lower, 11.7%
- COc1cc(OC)cc(C(=O)NCC2(N3CCOCC3)CCCCC2)c1 — lower, 12.4%
- COc1cccc(C(=O)N(c2cc(C)cc(C)c2)C2CCN(C(=O)OC(C)(C)C)CC2)c1 — lower, 5.45%
- CCC(CO)(C(=O)OC1CN2CCC1CC2)c1ccccc1 (stereo not drawn) — lower, -17.4%
